Read-outs that look alike come from different tables or passages of the source.
What was measured:
hNaV1.1 = hNaV1.1 (Homo sapiens, UniProt P35498); assay: Automated whole-cell patch-clamp electrophysiology, hNaV1.1/β1 in HEK293 cells; settings: read-out: IC50 NaV1.1; automated whole-cell patch-clamp (QPatch-16), HEK293 hNaV1.1/β1, peptide with 0.1% BSA, 5 min per concentration, pulse to −20 mV from −90 mV, 22 °C; mean ± SEM, n = 3–10 cells
hNaV1.5 [1] = molecular target: T1, hNaV1.5 (Homo sapiens, UniProt Q14524); assay: Automated whole-cell patch-clamp electrophysiology, hNaV1.5/β1 in HEK293 cells; settings: read-out: IC50 NaV1.5; automated whole-cell patch-clamp (QPatch-16), HEK293 hNaV1.5/β1, 0.1% BSA, 5 min per concentration, 22 °C; n = 3–10 cells
hNaV1.6 = hNaV1.6 (Homo sapiens, UniProt Q9UQD0); assay: Automated whole-cell patch-clamp electrophysiology, hNaV1.6/β1 in HEK293 cells; settings: read-out: IC50 NaV1.6; automated whole-cell patch-clamp (QPatch-16), HEK293 hNaV1.6/β1, 0.1% BSA, 5 min per concentration, 22 °C; mean ± SEM, n = 3–10 cells
hNaV1.7 = hNaV1.7 (Homo sapiens, UniProt Q15858); assay: Automated whole-cell patch-clamp electrophysiology, hNaV1.7/β1 in HEK293 cells; settings: for Inhibitory Potency at hNaV1.7: Yes/No summary, Table 2; for IC50: read-out: IC50 hNaV1.7, analogue and extended µ-conotoxin series (Table 3, Figures 2 and 6), automated whole-cell patch-clamp, HEK293 hNaV1.7/β1, 5 min per concentration, 22 °C, mean ± SEM, n = 3–4 cells
hNaV1.5 [2] = molecular target: T1, hNaV1.5; settings: read-out: IC50 NaV1.5; whole-cell patch-clamp, HEK293 hNaV1.5/β1; cited from earlier work

Chains of the proteins cited; added tags and fusions are not shown.
UniProt Q14524, whole entry, looked up: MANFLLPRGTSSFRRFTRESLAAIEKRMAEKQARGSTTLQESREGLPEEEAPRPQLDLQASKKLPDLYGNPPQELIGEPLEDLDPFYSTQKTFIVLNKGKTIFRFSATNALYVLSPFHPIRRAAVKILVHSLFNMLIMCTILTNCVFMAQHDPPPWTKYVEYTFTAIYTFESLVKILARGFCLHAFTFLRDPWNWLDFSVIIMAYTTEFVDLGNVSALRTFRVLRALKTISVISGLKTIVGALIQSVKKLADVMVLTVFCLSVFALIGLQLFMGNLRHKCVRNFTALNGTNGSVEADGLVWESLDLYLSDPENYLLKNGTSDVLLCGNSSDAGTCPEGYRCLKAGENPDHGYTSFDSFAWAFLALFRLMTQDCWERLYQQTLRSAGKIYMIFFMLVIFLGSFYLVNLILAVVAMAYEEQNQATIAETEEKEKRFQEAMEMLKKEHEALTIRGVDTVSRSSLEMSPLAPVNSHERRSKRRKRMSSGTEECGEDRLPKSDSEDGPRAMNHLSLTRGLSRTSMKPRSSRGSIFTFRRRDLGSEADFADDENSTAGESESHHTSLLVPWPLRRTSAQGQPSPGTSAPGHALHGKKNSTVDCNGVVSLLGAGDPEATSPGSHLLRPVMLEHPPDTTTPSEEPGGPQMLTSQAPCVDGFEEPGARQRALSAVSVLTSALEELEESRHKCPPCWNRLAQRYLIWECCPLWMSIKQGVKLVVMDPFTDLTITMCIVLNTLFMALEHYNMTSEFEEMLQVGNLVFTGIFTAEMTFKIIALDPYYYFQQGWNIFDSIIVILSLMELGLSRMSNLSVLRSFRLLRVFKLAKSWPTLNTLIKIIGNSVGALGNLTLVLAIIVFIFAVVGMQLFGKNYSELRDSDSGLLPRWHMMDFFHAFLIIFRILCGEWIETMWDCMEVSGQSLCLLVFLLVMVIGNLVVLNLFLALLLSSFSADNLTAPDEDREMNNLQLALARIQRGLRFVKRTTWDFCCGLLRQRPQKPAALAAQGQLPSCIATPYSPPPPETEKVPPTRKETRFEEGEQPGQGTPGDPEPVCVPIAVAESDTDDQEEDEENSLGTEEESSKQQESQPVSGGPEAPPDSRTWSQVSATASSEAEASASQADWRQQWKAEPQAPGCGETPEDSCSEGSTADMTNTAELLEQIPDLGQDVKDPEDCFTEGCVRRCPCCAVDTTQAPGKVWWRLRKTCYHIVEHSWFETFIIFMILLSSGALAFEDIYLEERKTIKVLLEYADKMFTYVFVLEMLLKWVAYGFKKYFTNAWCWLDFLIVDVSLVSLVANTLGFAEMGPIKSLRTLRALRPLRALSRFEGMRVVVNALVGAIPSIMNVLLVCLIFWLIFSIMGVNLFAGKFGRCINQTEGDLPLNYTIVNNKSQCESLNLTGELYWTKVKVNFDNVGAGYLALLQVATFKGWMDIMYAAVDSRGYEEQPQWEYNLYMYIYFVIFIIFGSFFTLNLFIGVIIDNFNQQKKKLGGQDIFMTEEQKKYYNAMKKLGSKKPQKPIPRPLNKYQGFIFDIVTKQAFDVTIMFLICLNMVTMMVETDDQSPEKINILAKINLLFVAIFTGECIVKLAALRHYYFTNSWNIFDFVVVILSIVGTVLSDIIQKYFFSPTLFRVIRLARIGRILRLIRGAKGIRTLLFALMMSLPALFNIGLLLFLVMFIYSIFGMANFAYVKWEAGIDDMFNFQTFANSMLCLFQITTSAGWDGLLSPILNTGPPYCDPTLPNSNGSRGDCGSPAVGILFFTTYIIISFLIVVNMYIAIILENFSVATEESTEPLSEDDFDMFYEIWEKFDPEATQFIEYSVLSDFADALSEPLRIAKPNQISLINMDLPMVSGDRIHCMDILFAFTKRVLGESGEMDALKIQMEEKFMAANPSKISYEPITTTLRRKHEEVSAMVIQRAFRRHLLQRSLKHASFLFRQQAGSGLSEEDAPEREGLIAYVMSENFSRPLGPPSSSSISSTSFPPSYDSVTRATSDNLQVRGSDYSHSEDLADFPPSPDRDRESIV
UniProt Q9UQD0, whole entry, looked up: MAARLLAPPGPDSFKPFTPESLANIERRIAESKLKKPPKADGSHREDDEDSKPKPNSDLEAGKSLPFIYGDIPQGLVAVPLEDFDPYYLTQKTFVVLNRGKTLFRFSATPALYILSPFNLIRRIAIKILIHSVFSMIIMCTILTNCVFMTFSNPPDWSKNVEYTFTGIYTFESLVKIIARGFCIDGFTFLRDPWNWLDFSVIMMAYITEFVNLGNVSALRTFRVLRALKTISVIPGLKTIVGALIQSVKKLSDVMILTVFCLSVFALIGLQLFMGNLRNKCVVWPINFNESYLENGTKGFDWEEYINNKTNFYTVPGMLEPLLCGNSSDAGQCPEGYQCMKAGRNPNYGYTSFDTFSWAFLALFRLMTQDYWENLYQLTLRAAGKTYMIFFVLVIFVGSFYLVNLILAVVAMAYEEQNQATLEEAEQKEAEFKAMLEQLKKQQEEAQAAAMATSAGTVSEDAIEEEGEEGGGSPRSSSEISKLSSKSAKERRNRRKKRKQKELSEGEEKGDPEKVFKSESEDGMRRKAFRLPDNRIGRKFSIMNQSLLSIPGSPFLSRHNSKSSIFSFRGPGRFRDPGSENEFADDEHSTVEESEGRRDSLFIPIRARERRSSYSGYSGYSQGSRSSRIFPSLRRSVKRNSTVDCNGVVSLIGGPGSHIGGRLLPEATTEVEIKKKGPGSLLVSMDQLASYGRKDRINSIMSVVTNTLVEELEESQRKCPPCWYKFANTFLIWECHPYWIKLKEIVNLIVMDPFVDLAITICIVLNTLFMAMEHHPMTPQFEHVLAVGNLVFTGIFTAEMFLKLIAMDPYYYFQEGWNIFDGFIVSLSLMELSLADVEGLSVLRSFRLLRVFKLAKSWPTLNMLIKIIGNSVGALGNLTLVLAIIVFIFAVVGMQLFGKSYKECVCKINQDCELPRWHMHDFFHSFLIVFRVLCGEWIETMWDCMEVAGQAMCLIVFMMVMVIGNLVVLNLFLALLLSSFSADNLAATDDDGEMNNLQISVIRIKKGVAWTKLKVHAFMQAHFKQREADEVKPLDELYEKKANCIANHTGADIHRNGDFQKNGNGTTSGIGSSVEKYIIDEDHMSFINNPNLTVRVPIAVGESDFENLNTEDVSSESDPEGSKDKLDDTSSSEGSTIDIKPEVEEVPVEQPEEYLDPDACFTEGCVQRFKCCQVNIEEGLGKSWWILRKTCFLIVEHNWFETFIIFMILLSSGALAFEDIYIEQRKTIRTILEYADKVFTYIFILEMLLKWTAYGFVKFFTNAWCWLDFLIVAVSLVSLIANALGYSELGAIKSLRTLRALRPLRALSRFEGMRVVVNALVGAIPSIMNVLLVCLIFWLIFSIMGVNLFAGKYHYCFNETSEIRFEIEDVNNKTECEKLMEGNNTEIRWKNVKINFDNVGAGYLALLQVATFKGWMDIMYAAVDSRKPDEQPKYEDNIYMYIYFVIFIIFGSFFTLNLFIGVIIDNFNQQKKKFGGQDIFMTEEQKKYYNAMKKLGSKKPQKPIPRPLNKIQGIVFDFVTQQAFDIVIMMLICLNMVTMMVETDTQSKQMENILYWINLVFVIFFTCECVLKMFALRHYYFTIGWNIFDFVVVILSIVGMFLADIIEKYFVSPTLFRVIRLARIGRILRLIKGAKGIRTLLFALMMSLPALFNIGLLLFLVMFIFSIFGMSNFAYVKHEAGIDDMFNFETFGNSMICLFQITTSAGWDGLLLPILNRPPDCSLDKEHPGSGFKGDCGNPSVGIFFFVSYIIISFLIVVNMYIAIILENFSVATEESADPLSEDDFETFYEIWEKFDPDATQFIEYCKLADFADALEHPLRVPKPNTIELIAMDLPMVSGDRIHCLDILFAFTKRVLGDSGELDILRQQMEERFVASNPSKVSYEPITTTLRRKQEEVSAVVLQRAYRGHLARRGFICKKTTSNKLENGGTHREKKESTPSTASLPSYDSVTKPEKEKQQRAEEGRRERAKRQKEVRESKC
UniProt Q15858, whole entry, looked up: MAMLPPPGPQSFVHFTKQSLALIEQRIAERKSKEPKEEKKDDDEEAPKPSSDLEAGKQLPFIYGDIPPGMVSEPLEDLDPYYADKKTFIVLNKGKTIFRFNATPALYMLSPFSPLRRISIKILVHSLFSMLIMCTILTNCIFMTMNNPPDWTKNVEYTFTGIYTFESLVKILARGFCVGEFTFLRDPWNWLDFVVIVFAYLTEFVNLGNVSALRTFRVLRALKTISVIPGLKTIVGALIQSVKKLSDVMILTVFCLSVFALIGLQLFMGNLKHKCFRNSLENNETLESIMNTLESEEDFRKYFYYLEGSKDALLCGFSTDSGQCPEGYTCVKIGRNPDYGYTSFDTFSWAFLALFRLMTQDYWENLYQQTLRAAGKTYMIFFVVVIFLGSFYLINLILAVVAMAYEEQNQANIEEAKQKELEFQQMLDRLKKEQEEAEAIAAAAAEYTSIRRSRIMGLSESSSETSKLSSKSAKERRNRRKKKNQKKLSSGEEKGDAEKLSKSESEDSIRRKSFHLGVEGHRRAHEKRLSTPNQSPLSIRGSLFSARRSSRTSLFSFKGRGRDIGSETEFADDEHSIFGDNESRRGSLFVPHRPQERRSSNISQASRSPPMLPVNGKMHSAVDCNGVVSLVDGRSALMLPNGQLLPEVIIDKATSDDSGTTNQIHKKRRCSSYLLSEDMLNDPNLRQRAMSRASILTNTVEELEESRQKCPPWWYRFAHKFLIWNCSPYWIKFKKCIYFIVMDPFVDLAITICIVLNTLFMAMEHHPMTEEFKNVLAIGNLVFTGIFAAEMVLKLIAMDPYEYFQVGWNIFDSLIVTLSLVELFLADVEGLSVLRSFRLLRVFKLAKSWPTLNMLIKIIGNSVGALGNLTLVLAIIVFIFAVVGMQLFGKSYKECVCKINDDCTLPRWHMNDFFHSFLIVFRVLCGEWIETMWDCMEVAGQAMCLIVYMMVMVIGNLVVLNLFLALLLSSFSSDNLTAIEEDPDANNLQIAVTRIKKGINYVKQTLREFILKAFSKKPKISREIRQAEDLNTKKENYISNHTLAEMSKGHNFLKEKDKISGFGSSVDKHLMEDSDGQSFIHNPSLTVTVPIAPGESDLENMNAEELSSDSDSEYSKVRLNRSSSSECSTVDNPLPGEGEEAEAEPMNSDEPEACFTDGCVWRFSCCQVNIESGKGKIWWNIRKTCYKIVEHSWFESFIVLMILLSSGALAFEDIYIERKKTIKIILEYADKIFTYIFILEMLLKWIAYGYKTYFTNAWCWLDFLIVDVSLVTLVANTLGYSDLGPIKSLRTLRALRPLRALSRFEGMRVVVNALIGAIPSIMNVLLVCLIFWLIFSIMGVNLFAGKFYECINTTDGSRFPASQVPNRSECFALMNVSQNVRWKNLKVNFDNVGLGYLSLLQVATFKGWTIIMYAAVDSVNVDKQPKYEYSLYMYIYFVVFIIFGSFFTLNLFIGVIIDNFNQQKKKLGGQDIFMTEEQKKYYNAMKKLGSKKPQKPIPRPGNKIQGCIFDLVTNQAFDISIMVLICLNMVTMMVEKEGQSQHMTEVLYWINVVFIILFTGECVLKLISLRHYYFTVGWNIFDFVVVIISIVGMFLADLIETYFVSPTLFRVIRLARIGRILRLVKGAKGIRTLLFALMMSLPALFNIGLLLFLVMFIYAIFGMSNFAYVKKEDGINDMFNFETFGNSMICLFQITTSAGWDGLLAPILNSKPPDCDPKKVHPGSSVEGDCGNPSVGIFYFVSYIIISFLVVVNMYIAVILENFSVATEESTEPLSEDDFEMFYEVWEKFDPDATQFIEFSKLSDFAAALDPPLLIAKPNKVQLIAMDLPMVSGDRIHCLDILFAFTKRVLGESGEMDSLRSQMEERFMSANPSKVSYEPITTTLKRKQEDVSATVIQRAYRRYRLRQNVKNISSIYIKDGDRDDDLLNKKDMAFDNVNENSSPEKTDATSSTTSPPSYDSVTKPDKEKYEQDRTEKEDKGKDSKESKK

**Q.** What does the source list for N=C(N)NCCC[C@@H]1NC(=O)[C@H](CO)NC(=O)[C@H](Cc2c[nH]cn2)NC(=O)[C@H](CC(=O)O)NC(=O)[C@H](CCCNC(=N)N)NC(=O)[C@@H]2CSSC[C@@H]3NC(=O)[C@@H](N)CSSC[C@H](NC1=O)C(=O)N[C@H](C(N)=O)CSSC[C@H](NC(=O)[C@H](CC(N)=O)NC3=O)C(=O)N[C@@H](CO)C(=O)N[C@@H](CO)C(=O)N[C@@H](CCCCN)C(=O)N[C@@H](Cc1c[nH]c3ccccc13)C(=O)N2?
**A.** IC50 (hNaV1.1): 136 nM; IC50 (hNaV1.5 [1]): > 1000 nM; IC50 (hNaV1.6): 762 nM; Inhibitory Potency at hNaV1.7 (hNaV1.7): Yes; IC50 (hNaV1.7): 384 nM

**Q.** Which IC50 (hNaV1.7) does the source give for C[C@@H]1NC(=O)[C@H](Cc2c[nH]cn2)NC(=O)[C@H](CC(=O)O)NC(=O)[C@H](CCC(N)=O)NC(=O)[C@@H]2CSSC[C@H](NC(=O)CNC(=O)[C@@H](N)CCCNC(=N)N)C(=O)N[C@H]3CSSC[C@H](NC(=O)[C@H](CCCNC(=N)N)NC1=O)C(=O)N[C@H](C(N)=O)CSSC[C@H](NC(=O)CNC(=O)CNC(=O)[C@H](CCCNC(=N)N)NC(=O)CNC(=O)[C@H](CC(N)=O)NC3=O)C(=O)N[C@@H](CO)C(=O)N[C@@H](CO)C(=O)N[C@@H](CCCNC(=N)N)C(=O)N[C@@H](Cc1c[nH]c3ccccc13)C(=O)N2 here?
**A.** 151 nM

**Q.** Which IC50 (hNaV1.7) does the source give for C[C@@H]1NC(=O)[C@H](Cc2c[nH]cn2)NC(=O)[C@H](CC(=O)O)NC(=O)[C@H](CCCNC(=N)N)NC(=O)[C@@H]2CSSC[C@H](N)C(=O)N[C@H]3CSSC[C@H](NC(=O)[C@H](CCCNC(=N)N)NC1=O)C(=O)N[C@H](C(N)=O)CSSC[C@H](NC(=O)CNC(=O)CNC(=O)[C@H](CCCNC(=N)N)NC(=O)CNC(=O)[C@H](CC(N)=O)NC3=O)C(=O)N[C@@H](CO)C(=O)N[C@@H](CO)C(=O)N[C@@H](CCCNC(=N)N)C(=O)N[C@@H](Cc1c[nH]c3ccccc13)C(=O)N2 here?
**A.** 106 nM

**Q.** Which results are given for N=C(N)NCCC[C@@H]1NC(=O)CNC(=O)[C@H](CC(N)=O)NC(=O)[C@@H]2CSSC[C@@H]3NC(=O)[C@H](CCCNC(=N)N)NC(=O)[C@H](CO)NC(=O)[C@H](Cc4c[nH]cn4)NC(=O)[C@H](CC(=O)O)NC(=O)[C@H](CCCNC(=N)N)NC(=O)[C@H](CSSC[C@H](NC(=O)[C@H](CCCNC(=N)N)NC(=O)[C@@H]4CCC(=O)N4)C(=O)N2)NC(=O)[C@H](Cc2c[nH]c4ccccc24)NC(=O)[C@H](CCCNC(=N)N)NC(=O)[C@H](CO)NC(=O)[C@H](CO)NC(=O)[C@H](CSSC[C@@H](C(N)=O)NC3=O)NC(=O)CNC(=O)[C@H](CCCNC(=N)N)NC1=O?
**A.** IC50 (hNaV1.1): 235 nM; IC50 (hNaV1.5 [1]): > 1000 nM; IC50 (hNaV1.6): 106 nM; Inhibitory Potency at hNaV1.7 (hNaV1.7): Yes

**Q.** Which IC50 (hNaV1.7) does the source give for C[C@@H]1NC(=O)[C@H](Cc2c[nH]cn2)NC(=O)[C@H](CC(=O)O)NC(=O)[C@H](CCCNC(=N)N)NC(=O)[C@@H]2CSSC[C@H](NC(=O)CNC(=O)[C@@H](N)CCCNC(=N)N)C(=O)N[C@H]3CSSC[C@H](NC(=O)[C@H](CCCNC(=N)N)NC1=O)C(=O)N[C@H](C(N)=O)CSSC[C@H](NC(=O)CNC(=O)CNC(=O)[C@H](CC(N)=O)NC3=O)C(=O)N[C@@H](CO)C(=O)N[C@@H](CO)C(=O)N[C@@H](CCCNC(=N)N)C(=O)N[C@@H](Cc1c[nH]c3ccccc13)C(=O)N2 here?
**A.** 314 nM

**Q.** With C[C@@H]1NC(=O)[C@H](Cc2c[nH]cn2)NC(=O)[C@H](CC(=O)O)NC(=O)[C@H](C)NC(=O)[C@@H]2CSSC[C@H](NC(=O)CNC(=O)[C@@H](N)CCCNC(=N)N)C(=O)N[C@H]3CSSC[C@H](NC(=O)[C@H](CCCNC(=N)N)NC1=O)C(=O)N[C@H](C(N)=O)CSSC[C@H](NC(=O)CNC(=O)CNC(=O)[C@H](CCCNC(=N)N)NC(=O)CNC(=O)[C@H](CC(N)=O)NC3=O)C(=O)N[C@@H](CO)C(=O)N[C@@H](CO)C(=O)N[C@@H](CCCNC(=N)N)C(=O)N[C@@H](Cc1c[nH]c3ccccc13)C(=O)N2 as the molecule, how does the IC50 (hNaV1.7) read?
**A.** 334 nM

**Q.** For C[C@@H]1NC(=O)[C@H](Cc2c[nH]cn2)NC(=O)[C@H](CC(=O)O)NC(=O)[C@H](CCCNC(=N)N)NC(=O)[C@@H]2CSSC[C@H](NC(=O)CN)C(=O)N[C@H]3CSSC[C@H](NC(=O)[C@H](CCCNC(=N)N)NC1=O)C(=O)N[C@H](C(N)=O)CSSC[C@H](NC(=O)CNC(=O)[C@H](CCCCN)NC(=O)[C@@H]1CCCN1C(=O)CNC(=O)[C@H](CC(N)=O)NC3=O)C(=O)N[C@@H](CO)C(=O)N[C@@H](CO)C(=O)N[C@@H](CCCCN)C(=O)N[C@@H](Cc1c[nH]c3ccccc13)C(=O)N2, which “Inhibitory Potency at hNaV1.7” value (hNaV1.7) is on record?
**A.** Yes

**Q.** And the IC50 (hNaV1.7)?
**A.** 546 nM

**Q.** For C[C@@H]1NC(=O)[C@H](Cc2c[nH]cn2)NC(=O)[C@H](CC(=O)O)NC(=O)[C@H](Cc2c[nH]cn2)NC(=O)[C@@H]2CSSC[C@H](NC(=O)CNC(=O)[C@@H](N)CCCNC(=N)N)C(=O)N[C@H]3CSSC[C@H](NC(=O)[C@H](CCCNC(=N)N)NC1=O)C(=O)N[C@H](C(N)=O)CSSC[C@H](NC(=O)CNC(=O)CNC(=O)[C@H](CCCNC(=N)N)NC(=O)CNC(=O)[C@H](CC(N)=O)NC3=O)C(=O)N[C@@H](CO)C(=O)N[C@@H](CO)C(=O)N[C@@H](CCCNC(=N)N)C(=O)N[C@@H](Cc1c[nH]c3ccccc13)C(=O)N2, which IC50 (hNaV1.7) is on record?
**A.** 66.5 nM

**Q.** Which IC50 (hNaV1.7) does the source give for C[C@@H]1NC(=O)[C@H](Cc2c[nH]cn2)NC(=O)[C@H](C)NC(=O)[C@H](CCCNC(=N)N)NC(=O)[C@@H]2CSSC[C@H](NC(=O)CNC(=O)[C@@H](N)CCCNC(=N)N)C(=O)N[C@H]3CSSC[C@H](NC(=O)[C@H](CCCNC(=N)N)NC1=O)C(=O)N[C@H](C(N)=O)CSSC[C@H](NC(=O)CNC(=O)CNC(=O)[C@H](CCCNC(=N)N)NC(=O)CNC(=O)[C@H](CC(N)=O)NC3=O)C(=O)N[C@@H](CO)C(=O)N[C@@H](CO)C(=O)N[C@@H](CCCNC(=N)N)C(=O)N[C@@H](Cc1c[nH]c3ccccc13)C(=O)N2 here?
**A.** 124 nM

**Q.** Which IC50 (hNaV1.5 [2]) does the source give for C[C@@H]1NC(=O)[C@H](Cc2c[nH]cn2)NC(=O)[C@H](CC(=O)O)NC(=O)[C@H](CCCNC(=N)N)NC(=O)[C@@H]2CSSC[C@H](NC(=O)CNC(=O)[C@@H](N)CCCNC(=N)N)C(=O)N[C@H]3CSSC[C@H](NC(=O)[C@H](CCCNC(=N)N)NC1=O)C(=O)N[C@H](C(N)=O)CSSC[C@H](NC(=O)CNC(=O)CNC(=O)[C@H](CCCNC(=N)N)NC(=O)CNC(=O)[C@H](CC(N)=O)NC3=O)C(=O)N[C@@H](CO)C(=O)N[C@@H](CO)C(=O)N[C@@H](CCCNC(=N)N)C(=O)N[C@@H](Cc1c[nH]c3ccccc13)C(=O)N2 here?
**A.** > 1000 nM

**Q.** With C[C@@H]1NC(=O)[C@H](Cc2c[nH]cn2)NC(=O)[C@H](CC(=O)O)NC(=O)[C@H](CCCNC(=N)N)NC(=O)[C@@H]2CSSC[C@H](NC(=O)CNC(=O)[C@@H](N)CCCNC(=N)N)C(=O)N[C@H]3CSSC[C@H](NC(=O)[C@H](CCCNC(=N)N)NC1=O)C(=O)N[C@H](C(N)=O)CSSC[C@H](NC(=O)[C@H](CC(N)=O)NC3=O)C(=O)N[C@@H](CO)C(=O)N[C@@H](CO)C(=O)N[C@@H](CCCNC(=N)N)C(=O)N[C@@H](Cc1c[nH]c3ccccc13)C(=O)N2 as the molecule, how does the IC50 (hNaV1.7) read?
**A.** 318 nM
